Measured values published in the supplement of paper PMC9931576.
Human monoclonal antibodies against the spike receptor-binding domain (heavy:light variable regions). IC50 against pseudoviruses bearing the spike of naturally observed variants; lower = stronger; >10 µg/ml means not reached at the top dose. No active / inactive call. The stated detection limit is 0.0005 µg/ml; values near or below 0.001 µg/ml lie at the floor of the assay.

B1: BD57-0140 (protein)
chain 1: EVQLVESGGGLVQPGGSLRLSCAASGFTFSNYDMHWVRQVTGKGLEWVALIGTAGDTYYPDTVKGRFTISRENAKNSLYLQMNSLRAGDTAVYYCARVSYDSSGYFYWFDLWGQGTLVTVSS
chain 2: DIQMTQSPSSLSASVGDRVTITCRASQRISTYLNWYQQKPGKAPKLLIYVASTLQSGVPSRFSGSGSGTDFTLTISSLQPEDFATYYCQQSYNTPPITFGQGTRLEIK
B2: BD57-0139 (protein)
chain 1: QVTLKESGPVLLKPTETLTLTCTVTKFSLSNARMGVSWIRQPPGRALEWLAHISANDEESYSPALKNRLSISKDTSKSQVVLSMTNMDPVDTATYYCAGTFSISWYDYWGQGTLVTVSS
chain 2: SYVLTQPPSVSVAPGKTARITCGGNNIGSQSVHWYQQKPGQAPVLVIYYDTDRPSGIPERFSGSKSENTATLTIGRVEAGDEADYYCQVWLSKGDLVIFGGGTKLTVL
B3: BD57-0136 (protein)
chain 1: QVTLKESGPVLVKPTETLTLTCTVSGLSLSNMRMGVSWIRQPPGKALEWLAHSSASDDKSYSPSLKTRLTISRGSSKSQVVLTMTNMDPMDTGTYYCAGTFSYFWYDYWGQGTLVTVSS
chain 2: SYVLTQPPSVSLAPGKTARITCETNNIGSKSVHWYRQRPGQAPVLVIYYNNDRPSGIPDRFSGSNSGNTATLTISRVEAGDEADYYCQVWDTSTDHVIFGGGTKLTVL
B4: BD57-0148 (protein)
chain 1: QGQLVQSGAEVKKPGASVKVSCEAPAYTSTGYYMHWLRQAPRQGLEWMGWMHPTTGGTDYAQKFRGRVTMTSDTSISTGYLELSSLTSDDTAVYYCAMTSSNWYAGGVKWGQGTLVTVSS
chain 2: DIQMTQSPSSLSAFLGDRITITCQASQGITNYLNWYQQKPGKAPKLLIYDASNLETGVPSRFSGSGSGTYFTLTISSLQPEDIATYYCQQYNNLPWTFGQGTKVEIK
B5: BD57-0189 (protein)
chain 1: QVTLRESGPALVKPTQTLTLTCTFSGFSLNTSGMSVSWIRQPPGKALEWLARIDWDDDKYHITSLRTRLTISKDTSKNQVVLTMTNMDPVDSATYYCARTRIGGYDYYFDYWGLGTLVTVSS
chain 2: QSVLTQPPSVSAAPGQKVTISCSGSTSNIGNYYVSWYQHLPGTAPKLLIYDNNKRPSGIPDRFSGSKSGTSATLGITGLQTGDEADYYCGTWDSSLDSGVFGGGTRLTVL
B6: BD57-0154 (protein)
chain 1: EEQLLESGGGLVQPGKSLKLSCAASGFTFTNYAINWVRQAPGKGLEWVSFITGSGNTAYYADSVKGRFTISRDNSKNTLFLQMNSLRAEDTAVYYCARHDSPTHSDVLTGPDAFDIWGQGTMVTVSS
chain 2: DIQMTQSPSTLSASVGDRVTITCRASQSISRWLAWYQQRPGKAPKLLIYMASSLEDGVPSRFSGSGSGTEFALTISSLQPEDFATYYCQQYNSFPYTFGQGTKLEIK

Target: SARS-CoV-2 Omicron BA.1 spike pseudovirus
Test: pseudovirus neutralization IC50; higher = weaker neutralization
Protocol: (§1)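 Single-round VSV luciferase pseudovirus mixed with antibody dilutions for 1 h and put on Huh-7 cells for about a day; IC50 from the dose curve.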

Binder | pseudovirus neutralization IC50
B1 | > 10 µg/mL
B2 | 0.0984 µg/mL
B3 | 0.0712 µg/mL
B4 | 4.44 µg/mL
B5 | > 10 µg/mL
B6 | 6.5 µg/mL

Target: SARS-CoV-2 Omicron BA.2 spike pseudovirus
Test: as above
Protocol: as §1

Binder | pseudovirus neutralization IC50
B1 | > 10 µg/mL
B2 | 0.149 µg/mL
B3 | 0.0735 µg/mL
B4 | 4.57 µg/mL
B5 | 0.178 µg/mL
B6 | 4.15 µg/mL

Target: SARS-CoV-2 Omicron BA.2.75 spike pseudovirus
Test: as above
Protocol: as §1

Binder | pseudovirus neutralization IC50
B1 | > 10 µg/mL
B2 | 0.0852 µg/mL
B3 | 0.0924 µg/mL
B4 | 4.89 µg/mL
B5 | > 10 µg/mL
B6 | 4.37 µg/mL

Target: SARS-CoV-2 Omicron BA.5 spike pseudovirus
Test: as above
Protocol: as §1

Binder | pseudovirus neutralization IC50
B1 | > 10 µg/mL
B2 | 0.469 µg/mL
B3 | 0.225 µg/mL
B4 | 4.23 µg/mL
B5 | 0.0735 µg/mL
B6 | 3.77 µg/mL

Target: SARS-CoV-2 Omicron BQ.1.1 spike pseudovirus
Test: as above
Protocol: as §1

Binder | pseudovirus neutralization IC50
B1 | > 10 µg/mL
B2 | > 10 µg/mL
B3 | > 10 µg/mL
B4 | > 10 µg/mL
B5 | > 10 µg/mL
B6 | 4.07 µg/mL

Target: SARS-CoV-2 Omicron XBB spike pseudovirus
Test: as above
Protocol: as §1

Binder | pseudovirus neutralization IC50
B1 | > 10 µg/mL
B2 | > 10 µg/mL
B3 | > 10 µg/mL
B4 | > 10 µg/mL
B5 | > 10 µg/mL
B6 | 3.18 µg/mL

Target: SARS-CoV-2 early D614G spike pseudovirus
Test: as above
Protocol: as §1

Binder | pseudovirus neutralization IC50
B1 | > 10 µg/mL
B2 | 0.0287 µg/mL
B3 | 0.0918 µg/mL
B4 | > 10 µg/mL
B5 | 2.2 µg/mL
B6 | 0.445 µg/mL
